# Source: PMC6484134 (The Journal of Biological Chemistry, 2019)
# Legend:
# [1] = target: T1, Cul3N (human Cul3 N-terminal domain, residues 1–388, I342R L346D) (human, UniProt Q13618 1-388, I342R | L346D); assay: ITC; details: both partners purified
# T1 construct: also called Cul3–NTD
# [2] = target: T2, Cul3NΔ22 (human Cul3 N-terminal domain, residues 23–388, I342R L346D) (human, UniProt Q13618 23-388, I342R | L346D); assay: ITC; details: both partners purified
# T2 construct: also called Cul3–NTD; Cu3NΔ22
binder,measurement,setting,value
"KLHL3-BB (human KLHL3 BTB-BACK domain, residues 24–276) (domain or fragment, UniProt Q9UH77 24-276, looked up) RTITVNPAHMGKAFKVMNELRSKQLLCDVMIVAEDVEIEAHRVVLAACSPYFCAMFTGDMSESKAKKIEIKDVDGQTLSKLIDYIYTAEIEVTEENVQVLLPAASLLQLMDVRQNCCDFLQSQLHPTNCLGIRAFADVHTCTDLLQQANAYAEQHFPEVMLGEEFLSLSLDQVCSLISSDKLTVSSEEKVFEAVISWINYEKETRLEHMAKLMEHVRLPLLPRDYLVQTVEEEALIKNNNTCKDFLIEAMKYH",Kd,[1],17 nM
same,dH,[1],-24.9 kcal/mol
same,Kd,[2],52.8 nM
